The test relates to C. albicans. Kind of test: In vitro microbicidal activity, 0.2% phosphate buffer with PHMB (Example 4). Format: cell-based. The settings on record: additive 0.5%, PHMB 0.0001%, pH 7.2, 4 hours, buffer control 0.99.

As to `OCCN(CCO)CCO`, the “Improvement (log reduction versus buffer control)” value is 0.83.

(Values after patent US10138384B2, “Ophthalmic and contact lens solutions using bicine” (priority 2000, dated 2018).)
